Target: EBOV GP-ΔM (EBOV GP ectodomain lacking the mucin-like domain) (Zaire ebolavirus, Mayinga-76 …, UniProt Q05320, excluding residues 312–463, N-linked glycan on Asn563)
Test: cell-based or functional assay

B1: Nanosota-EB1-His (VHH)
VHH: QVQLQESGGGQVQAGGSLRLSCAASGSTSVIYAMGWYRQAPGKQRELVAAITRGVGSTNYADSVKGRFTISRDNAKNTMYLQMNSLKPEDTAVYYCNARLLVAPPPYEYDYWGQGTQVTVSS
**Q.** Which “increase of the melting temperature of GP-ΔM (DSF, neutral pH)” value does the source give for B1 here?
**A.** 1 °C

B2: Nanosota-EB2-His (VHH)
VHH: QVQLQESGGGVVQAGGSLRLSCSASGRTFSNYAMAWFRQAPGKDREFAAGINYNGERTAYADSVKGRFTISRDDAKNTVYLQMNSLKPEDTAVYSCAARPWSIANLAYTYDSWGQGTQVTVSS
**Q.** B2 was tested. Which “increase of the melting temperature of GP-ΔM (DSF, neutral pH)” value did it give?
**A.** 6 °C

From article PMC11723632 (PLOS Pathogens, 2024)
